Tests used:
[1] = molecular target: HIV-1 protease MDR mutant M1 (L10I, G48V, I54V, L63P, V82A) (Human immunodeficiency virus type 1 group M subtype B, UniProt P04585, G536V/I542V/L498I/L551P/Q495K/V570A); test: biochemical
Description: (§1) The mutant variants were selected by examining the Stanford HIV-1 Drug Resistance Database (http://hivdb.stanford.edu) of HIV-1 infected-patient sequences of viral isolates. […] (Wu, T. D. et al. J. Virol. 2003, 77, 4836-4847.) These MDR mutant variants are L10I, G48V, I54V, L63P, V82A (M1), D30N, L63P, N88D (M2), and L10I, L63P, A71V, G73S, I84V, L90M (M3).
(§2) The energy transfer donor (EDANS) and acceptor (DABCYL) were labeled at its two ends respectively to perform FRET. Fluorescence measurements were carried out on PTI fluorescence spectrophotometer (Photon Technology International) at 30° C. Excitation and emission wavelengths were set at 340 nm and 490 nm, respectively. Each reaction was recorded for about 10 min. Wide type HIV-1 protease (Q7K) and its MDR mutants M1 (L10I, G48V, I54V, L63P, V82A), M2 (D30N, L63P, N88D), and M3 (L10I, L63P, A71V, G73S, I84V, L90M) were desalted through PD-10 columns (Amersham Biosciences). Sodium Acetate (20 mM, pH 5) was used as elution buffer. Apparent protease concentrations were around 50 nM estimated by UV spectrophotometer (Shimadzu) at 280 nm. All inhibitors were dissolved in DMSO and diluted to appropriate concentrations. Protease (2 μL) and inhibitor (2 μL) or DMSO were mixed and incubated for 20-30 min at room temperature before initialing substrate cleavage reaction. Throughout this work, 150 μL of 1 μM substrate was used. […]

[2] = molecular target: HIV-1 protease MDR mutant M2 (D30N, L63P, N88D) (Human immunodeficiency virus type 1 group M subtype B, UniProt P04585, D518N/L551P/N576D/Q495K); test: biochemical
Description: as §1, §2

Compound `COc1ccc(S(=O)(=O)N(CC(C)C)C[C@@H](O)[C@H](Cc2ccccc2)NC(=O)[C@@H]2CN(c3cccc(C(C)=O)c3)C(=O)O2)cc1` [21e, (5S)-3-(3-Acetylphenyl)-N-[(1S,2R)-1-benzyl-2-hydroxy-3-[isobutyl[(4-methoxyphenyl)-sulfonyl]amino]propyl]-2-oxo-oxazolidine-S-carboxamide] has a Ki [1] of 160 pM and a Ki [2] of 39 pM.
